Data published in ChEMBL document CHEMBL1127858, “Synthesis and evaluation of the anti-HIV activity of aza and deaza analogues of isoddA and their phosphates as prodrugs” (J Med Chem, 1994).

Columns and labels:
[1] = Ratio of CC50 value that of EC50 value(HIV-2); assay type: functional
Outline: (§1)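 Selectivity index as the CC50/EC50 ratio. CC50 comes from mock-infected MT-4 viability by MTT. EC50 comes from MTT-measured protection of MT-4 cells infected with 100 CCID50 of HIV-1 IIIB or HIV-2 CBL 20. Data are means of three experiments.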

[2] = Ratio of CC50 value that of EC50 value(HIV-1); assay type: functional; outline: as §1

Cc1cn([C@H]2C[C@H](N=[N+]=[N-])[C@@H](CO)O2)c(=O)[nH]c1=O [ZIDOVUDINE]
Ratio [1]: > 2000
Ratio [2]: > 8000
